Measurements: PMC6371959 (Antiviral Research, 2018)

Tested on: EBOV minigenome (WT NP)
Settings: BSR-T7

`O=C(c1cccc(/C=C2\SC(=O)N(Cc3ccccc3)C2=O)c1)N1CCN(c2ccccn2)CC1` [MCCB4] was tested, and the SI, Selective Index (CC50/EC50) was > 20.8.
